Anti-infective test results gathered from many reports (values: NIAID ChemDB through PubChem).

All rows: host cell toxicity; cell line: VERO; measure: CC50

CCn: concentration that lowers growth or viability of the cells by n%. Blank or dashed fields: not listed here. Conditions beyond the fields shown may differ between rows.

| structure | method | result |
|---|---|---|
| Nc1ncnc2c1ncn2[C@H]1C[C@H](F)[C@@H](CO)O1 | - | 36 µM |
| NNC(=O)N=C1/C(=C/c2ccco2)CNC/C1=C\c1ccco1 | MTT | 406 µg/mL |
| C/C(=N/NC(=S)N1CCN(c2ccccc2)CC1)c1nccs1 | - | 0.81 µg/mL |
| Cc1ccc2nc(C)c(C(=O)NCCCC3CCCCC3)n2c1 | resazurin | 102 µM |
| Nc1nc2c(nnn2C[C@H]2CC[C@@H](CO)C2)c(=O)[nH]1 | - | ≥400 µg/mL |
| Nc1ccn([C@@H]2C=C(CO)[C@@H](O)[C@@H]2O)c(=O)n1 | - | 320 µg/mL |
| CC(N=c1cc2n(-c3ccc(Cl)cc3)c3ccccc3nc-2cc1Nc1ccc(Cl)cc1)c1ccccc1 | - | 11.2 µg/mL |
| N[C@@H]1CONC1=O | MTT | >62.5 µg/mL |
| CCC(=O)O[C@H]1C[C@H](n2cc(/C=C/Br)c(=O)[nH]c2=O)O[C@@H]1COP1(=O)OCc2cccc(C)c2O1 | - | >64 µg/mL |
| COc1ccc(CNc2nc(=O)c3cc(C(F)(F)F)cc([N+](=O)[O-])c3o2)cc1OC | MTT | 0.226 µg/mL |
| CC(C)N=c1cc2n(-c3ccc(Cl)cc3)c3ccccc3nc-2cc1Nc1ccc(Cl)cc1 | - | 13.8 µg/mL |
| CO/N=C1/C(=O)N(CCOCCOCCOCCn2c(O)c(N=NC(N)=O)c3cc(F)ccc32)c2ccc(F)cc21 | MTT | 62.5 µg/mL |
| O=[N+]([O-])c1cn2c(n1)OCC(OCc1ccc(OC(F)(F)F)cc1)C2 | - | >128 µM |
| CC/C=C\C/C=C\C/C=C\C/C=C\C/C=C\CCCC(=O)OC(CO[C@H]1O[C@H](CS(=O)(=O)O)[C@@H](O)[C@H](O)[C@H]1O)OC(=O)CCCCCCCCCCCCCCC | MTT | 114 µg/mL |
| CC(=O)OC[C@H]1O[C@@H](n2ncc(=O)[nH]c2=O)[C@H](OC(C)=O)[C@@H]1OC(C)=O | neutral red | 50 µg/mL |
| Cc1cc(C)c2c(c1)COP(=O)(OC[C@H]1O[C@@H](n3cc(/C=C/Br)c(=O)[nH]c3=O)C[C@@H]1O)O2 | - | 96.2 µg/mL |
| CCN(CCNc1ccc(C)c2sc3ccccc3c(=O)c12)CC(C)(C)O | - | 13.75 µg/mL |
| O=C1NC(=O)c2c1c1c3ccccc3[nH]c1c1c2c2ccccc2n1CC(F)(F)F | - | <8 µM |
| Clc1ccc(Cl)c(N/N=C/c2c[nH]c3ccccc23)c1 | - | 5.4 µg/mL |
| CCC(C)COC(=O)Nc1cccc(Cl)c1 | - | 30 µg/mL |
| CCn1cc(C(=O)O)c(=O)c2cc([N+](=O)[O-])c3cccnc3c21 | luminescence | >100 µg/mL |
| CCOC(=O)c1cc(-c2cc3ccccc3s2)on1 | - | >128 µM |
| Nc1ncnc2c1ncn2C[C@H](O)CO | - | >400 µg/mL |
| COc1ccc(-c2csc(NN=Cc3ccc4c(c3)c3ccccc3n4C)n2)cc1OC | MTT | 220.8 µM |
| CC(C)OC(=O)c1cc(-c2cc3ccccc3s2)on1 | - | >128 µM |
| Cc1cccc2c1OP(=O)(OC[C@H]1O[C@@H](n3cc(/C=C/Br)c(=O)[nH]c3=O)C[C@@H]1O)OC2 | - | >128 µg/mL |
| Nc1nncc2c([C@H]3CC[C@@H](CCP(=O)(O)O)C3(F)F)c[nH]c12 | MTT / absorbance | 15.9 µM |
| O=c1nc(N2CCN(CC3CCCCC3)CC2)sc2c([N+](=O)[O-])cc(C(F)(F)F)cc12 | MTT | 6.2 µg/mL |
| Nc1nc(N)c2nnn(C[C@H]3CC[C@@H](CO)C3)c2n1 | - | ≥200 µg/mL |
| Cc1cc2c(cc1C)[n+](=O)c(C#N)c(-c1ccc(F)cc1)n2[O-] | - | >100 µg/mL |
| CC(=O)O[C@H]1CC[C@]2(C)C3CC[C@@]4(C)C(C[C@@H](Br)C45OCCO5)C3CC[C@H]2C1 | MTT | 64.11 µM |
| CC(C)(C)OC(=O)N1C[C@H]2CC(n3cnc4c(N)ncnc43)[C@@H]1C2 | MTS | >151 µM |
| Fc1ccccc1N=C1/C(=C/c2ccco2)CNC/C1=C\c1ccco1 | MTT | 318 µg/mL |
| OC[C@@H]1O[C@@H](n2cnc3c(Cl)ncnc32)CS1 | - | >32.7 µM |
| Nc1ncnc2ncn(COCCO)c12 | - | 496 µg/mL |
| COc1cc2c(cc1-c1coc3cc4occc4cc3c1=O)OCO2 | - | >50 µg/mL |
| COC(=O)C1=C(C)NC(C)=C(C(=O)OCCCN2CCC(c3ccccc3)(c3ccccc3)CC2)C1c1cccc([N+](=O)[O-])c1.Cl | - | 2.9 µg/mL |
| Nc1ncnc2ncn(CCOCP(=O)(O)O)c12 | - | 246 µg/mL |
| NNC(=S)NN=C1/C(=C/c2ccco2)CNC/C1=C\c1ccco1 | MTT | 362 µg/mL |
| NC(=O)c1csc([C@@H]2O[C@H](COP(=O)(O)CP(=O)(O)OC[C@H]3O[C@@H](n4cnc5c(N)ncnc54)[C@H](O)[C@@H]3O)[C@@H](O)[C@H]2O)n1 | neutral red | >1000 µg/mL |
| CC(=O)O[C@H]1CC[C@@]2(C)C(=CC[C@@H]3[C@@H]2CC[C@]2(C)C(=O)[C@@H](OC(C)=O)C[C@@H]32)C1 | MTT | 584.3 µM |
| O=C1C=C(Nc2ncccn2)c2ccccc2C1=O | - | 0.09 µg/mL |
| CCO/N=C1/C(=O)N(CCOCCOCCOCCN2C(=O)C(=O)c3ccccc32)c2ccc(C)cc21 | MTT | 125 µg/mL |
| Nc1nc2c(ncn2CCOCP(=O)(O)O)c(=O)[nH]1 | - | 7 µg/mL |
| COC(=O)[C@H](C)NP(=O)(OC[C@@H]1C[C@]12C[C@@H]2n1cnc2c(N)ncnc21)Oc1ccccc1 | - | 27 µM |
| Nc1nc2c(ncn2C[C@H]2CC[C@@H](CO)C2)c(=O)[nH]1 | - | ≥400 µg/mL |
| NC(=O)c1[nH]nc([C@@H]2O[C@H](CO)[C@@H](O)[C@H]2O)c1O | - | 90 µg/mL |
| CCc1cn([C@H]2C[C@H](O)[C@@H](COP(=O)(O)C(N)=O)S2)c(=O)[nH]c1=O | - | >1300 µM |
| O=c1cc[nH]c(=S)[nH]1 | neutral red | >100 µg/mL |
| Cc1cc(O)c2c(c1Cl)C(=O)C=CC2=O | XTT | 7.6 µg/mL |
| O=C1C=CN([C@@H]2O[C@H](CO)[C@@H](O)[C@H]2O)C(=O)C1 | neutral red | 593 µg/mL |
| CC(C)OC(=O)c1cc(-c2cccs2)on1 | - | >128 µM |
| Cn1c2ccccc2c2cc(C=NNc3nc(-c4ccccc4O)cs3)ccc21 | MTT | 440.8 µM |
| NC(=O)c1ncn([C@@H]2O[C@H](CO)[C@@H](O)[C@H]2O)c1C#CCO | - | 0.61 µg/mL |
| CC(=O)O[C@H]1CC[C@@]2(C)C(=CC[C@@H]3[C@@H]2CC[C@]2(C)C(=O)CC[C@@H]32)C1 | MTT | 1227 µM |
| CO/N=C1/C(=O)N(CCOCCOCCOCCn2c(O)c(N=O)c3cc(F)ccc32)c2ccc(F)cc21 | MTT | 62.5 µg/mL |
| c1cnc2c(c1)ccc1cccnc12 | - | <4.16 µg/mL |
| O=c1cnn([C@@H]2O[C@H](CO)[C@@H](O)[C@H]2O)c(=O)[nH]1 | - | 143 µg/mL |
| CCN(CC)c1ccc2nc3c4ccccc4c(=O)cc-3n(-c3ccccc3)c2c1 | - | 3.7 µg/mL |
| CN(Cc1nnc(-c2ccco2)o1)Cc1c(F)cccc1Cl | fluorescence | >100 µM |
| CCOC(=O)Nc1nc(N)c2c(n1)NCCC(c1ccccc1)=N2 | - | >200 µg/mL |
| CCn1cc(C(=O)O)c(=O)c2cc(F)c(N3CCNCC3)nc21 | - | >10 µg/mL |
| CCOC(=O)c1cn(C)c2c(cc([N+](=O)[O-])c3cccnc32)c1=O | luminescence | >100 µg/mL |
| Cc1nn(C)c2c(N)n[nH]c12 | - | 129 µg/mL |
| Cn1c2ccccc2c2cc(C=NNc3nc(-c4cc5cc(Br)ccc5oc4=O)cs3)ccc21 | MTT | 401.7 µM |
| Nc1nc(=O)n2ccn([C@@H]3O[C@H](CO)[C@@H](O)[C@H]3O)c2n1 | - | >100 µg/mL |
| CCOC(=O)c1noc(/C=C/c2cccc(Cl)c2)c1C(=O)c1ccccc1 | - | 108.4 µM |
| COc1ccc(C2N(NC(=O)c3ccncc3)C(=O)CS2(=O)=O)cc1F | - | >10 µg/mL |
| O=C1c2cc3ccoc3cc2O[C@@H]2COc3cc4c(cc3[C@H]12)OCO4 | - | >50 µg/mL |
| C#Cc1c(C(N)=O)ncn1[C@@H]1O[C@H](CO)[C@@H](O)[C@H]1O | - | 0.74 µg/mL |
| O=c1[nH]cnc2c1ncn2[C@@H]1O[C@@H](CO)C=C1F | - | >100 µM |
| O=C1C2=Nc3ccncc3CN2c2ccc(Cl)cc21 | - | 2 µg/mL |
| CC(=O)O[C@H]1CC[C@@]2(C)C(=CC[C@@H]3[C@@H]2CC[C@@]2(C)[C@H]3CCC23OCCO3)C1 | MTT | 814.4 µM |
| CC(C)OC(=O)c1noc(/C=C/c2ccccc2)c1C(=O)c1ccccc1 | - | 100.6 µM |
| O=C(OCc1ccccc1)c1coc(-c2ccccc2)n1 | MTS / absorbance | >128 µM |
| Cn1c2ccccc2c2cc(C=NNc3nc(-c4cccs4)cs3)ccc21 | MTT | 210.2 µM |
| CCOc1nnc(NS(=O)(=O)c2ccc(N)cc2)o1 | fluorescence | >100 µM |
| COc1c2c(cc3ccoc13)C(=O)[C@H]1c3cc4c(cc3OC[C@H]1O2)OCO4 | - | >50 µg/mL |
| CC(C)(C)OC(=O)N1[C@@H]2CC(n3cnc4c(N)ncnc43)[C@H]1c1ccccc12 | MTS | >132 µM |
| N=C1/C(=C/c2ccccc2O)C(=O)NN1C(=O)c1ccncc1 | - | >62.5 µg/mL |
| CO/N=C1/C(=O)N(CCOCCOCCOCCN2C(=O)C(=O)c3cc(C)ccc32)c2ccccc21 | MTT | 125 µg/mL |
| O=C1c2ccccc2C(=O)c2c1oc1cc(O)c(Cl)cc21 | - | >10 µg/mL |
| Cc1cc(=O)c2c(O)c3c(O)cc(O)c4c5c(O)cc(O)c6c(O)c7c(=O)cc(C)c8c1c2c(c34)c(c65)c78 | neutral red | 50 µg/mL |
| COc1cccc2cc(-c3cc(C(=O)OC(C)C)no3)oc12 | - | >128 µM |
| Nc1ncnc2c1ncn2C1OC(CO)C=C1F | - | >100 µM |
| O=C([O-])C(F)(F)F.O=C([O-])C(F)(F)F.c1nc([NH2+]C2CC2)c2ncn(C3C[C@@H]4C[NH2+][C@H]3C4)c2n1 | MTS | >100 µM |
| CO[C@H]1/C=C/O[C@@]2(C)Oc3c(C)c(O)c4c(O)c(c5[nH]c(-c6ccccc6)nc5c4c3C2=O)NC(=O)/C(C)=C\C=C\[C@H](C)[C@H](O)[C@@H](C)[C@@H](O)[C@@H](C)[C@H](OC(C)=O)[C@@H]1C | - | 1.14 µg/mL |
| CO[C@H]1/C=C/O[C@@]2(C)Oc3c(C)c(O)c4c(O)c(c(/C=N/N5CCN(C)CC5)c(O)c4c3C2=O)NC(=O)/C(C)=C\C=C\[C@H](C)[C@H](O)[C@@H](C)[C@@H](O)[C@@H](C)[C@H](OC(C)=O)[C@@H]1C | XTT | >300 µg/mL |
| CCCn1c2ccccc2c2c3c(c4c5ccccc5[nH]c4c21)C(=O)NC3=O | - | <8 µM |
| c1csc(-c2nnc(COc3ccc4c(c3)OCO4)o2)c1 | fluorescence | >100 µM |
| C/C(=C\c1c(C)[nH]c2ccccc12)[N+](=O)[O-] | - | 1.6 µg/mL |
| CCOC(=O)c1cc(-c2cccs2)on1 | - | >128 µM |
| CCn1c2ccc(N)cc2c2c(N)c(-n3cccc3)ccc21 | - | 8 µg/mL |
| Nc1nc(=O)n([C@@H]2O[C@H](CO)C[C@H]2F)cc1F | - | 40.5 µM |
| CCN(CC)CCN(C)Cc1coc(-c2ccccc2)c1Cl.Cl.Cl | - | 2 µg/mL |
| Nc1ccn([C@@H]2CS[C@H](CO)O2)c(=O)n1 | - | >100 µM |
| CCN1CCC(CCOC)(CN2c3ccccc3Sc3ccc(Cl)cc32)C1.Cl | - | 2.14 µg/mL |
| Cn1c2ccccc2c2cc(C=NNc3nc(-c4ccc(O)cc4)cs3)ccc21 | MTT | 271.1 µM |

A second listing of 6 rows from above:

| structure | method | result |
|---|---|---|
| CC(C)(C)OC(=O)N1C[C@H]2CC(n3cnc4c(N)ncnc43)[C@@H]1C2 | MTS | >151 µM |
| N=C1/C(=C/c2ccccc2O)C(=O)NN1C(=O)c1ccncc1 | - | >62.5 µg/mL |
| N[C@@H]1CONC1=O | MTT | >62.5 µg/mL |
| NC(=O)c1ncn([C@@H]2O[C@H](CO)[C@@H](O)[C@H]2O)c1C#CCO | - | 0.61 µg/mL |
| Cc1cc(C)c2c(c1)COP(=O)(OC[C@H]1O[C@@H](n3cc(/C=C/Br)c(=O)[nH]c3=O)C[C@@H]1O)O2 | - | 96.2 µg/mL |
| CC(C)OC(=O)c1cc(-c2cc3ccccc3s2)on1 | - | >128 µM |